From US10231463B2, “Food mass suitable for microwaving” (Chemische Fabrik Budenheim KG, priority 2013, dated 2019) come the findings set out here.

The data set can be described thus: Thawing and baking trials with yeast-raised wheat frozen doughs in a microwave oven. To be noted: 2 parts by weight additive; deep-frozen 200 g dough piece; 600 watts, 120 seconds; 2 minutes standing time; infrared sensor. As for the experimental part:
Dough Composition (Basic Recipe):
In addition 2 parts by weight of microwave absorber were added to the basic recipe.
• Mixing and kneading time: 3+2 minutes (the latter in a Stephan mixer) • Dough standing time: 20 minutes • Dough piece weight: 200 g • Cooking time of the dough pieces: 20 minutes • Freezing time: about 4 hours • Deep freeze storage time: about 2 days Thawing and Baking Trials:
The deep-frozen dough pieces were exposed to microwave radiation in a microwave oven from Panasonic (model: NN-GD560M—inverter microwave) for a predetermined period of 120 seconds and with a predetermined microwave power of 600 watts (according to the device indication). After 2 minutes of standing time the temperature of the crust and the crumb was measured by means of an infrared temperature sensor at various measurement points on the dough piece.
Measurement value 1 (M1)=average crust temperature outside
Measurement value 2 (M2)=average crumb temperature in the interior of the dough piece.
With “Ammonium molybdate [AmMD(V), reference compound]”, the “M1 (average crust temperature outside)” value was 75.6 °C and the “M2 (average crumb temperature in the interior of the dough piece)” value is 51.4 °C.

On to Magnesium metaphosphate [MMP], for which the “M1 (average crust temperature outside)” value stood at 76.9 °C and the “M2 (average crumb temperature in the interior of the dough piece)” value turned out to be 38.5 °C.

For the substance “Sodium aluminium phosphate 1:3:8 NaH14Al3(PO4)8 [SALP 1]”, the “M1 (average crust temperature outside)” value is 74.8 °C and the “M2 (average crumb temperature in the interior of the dough piece)” value was found to be 45.2 °C.

For the substance “Sodium aluminium phosphate 3:2:8 Na3H15Al2*PO4)8 [SALP 2]”, the “M1 (average crust temperature outside)” value was determined as 78.3 °C and the “M2 (average crumb temperature in the interior of the dough piece)” value is 57.8 °C.
